Patent US12037363B2, “Peptides for Covid-19 prevention and treatment” (SOTIRA COVID, LLC, priority 2020, dated 2024)

Test system: SARS-CoV2 in VERO E6 cells
Assay: dual immunostaining of ACIS peptide and S-glycoprotein in infected VERO cells
Format: cell-based
Details: two hours of viral incubation
Procedure: Further confirming the profound activity of KEPTIDE COVIDs in the attenuation of viral infection, a dual immunostaining analyses with ACIS peptide (green) and S-glycoprotein (red) was performed. DAPI staining was carried out to identify big nuclei of VERO cells. […] The result was further corroborated with a quantification study that clearly indicated a strong inhibition of viral load around ACIS-treated VERO cells (***p<0.0001) (FIG. 6B).
In order to evaluate the efficacy of the KEPTIDE COVID in suppressing the secondary or chronic infection of SARS-COV2, testing was performed by dual immunostaining procedure after six hours of viral infection. […] The effect was further confirmed with a quantitative analysis (FIG. 7B).
Double Immunocytochemistry analyses was performed where […] VERO Cells were plated per well in 8-well chamber slide. Cells were starved with serum-free DMEM media for 30 mins followed by the treatment with 25 μM FITC-labeled KEPTIDE COVID. After another 30 mins, unbound KEPTIDE COVIDs were aspirated and then added SARS-CoV2 at a dose of 1-2 PFU/cell. After 2 and 6 hours of virus treatment, viral cells were removed, VERO cells were fixed with 8% PFA and kept at 4° C. for overnight. […]

With `CC(C)[C@H](NC(=O)CNC(=O)[C@H](CC(N)=O)NC(=O)[C@@H](NC(=O)[C@@H]1CCCN1C(=O)[C@H](CCC(N)=O)NC(=O)[C@@H](N)Cc1ccccc1)[C@@H](C)O)C(=O)NCC(=O)N[C@@H](Cc1ccc(O)cc1)C(=O)N[C@@H](CCC(N)=O)C(=O)N1CCC[C@H]1C(=O)N[C@@H](Cc1ccc(O)cc1)C(=O)NCC(=O)O` [ACIS peptide, FQPTNGVGYQPYG] the “distribution of peptide on VERO cells” value was “perfectly aligned on the membrane of VERO cells”.
